Results of unrelated studies side by side (data: NIAID ChemDB).

Common to all: tests in culture

An empty or dashed field is not shown. Rows are shuffled and stem from different studies. a–b is a range or a potency band. ECn is the concentration giving n% inhibition of infection, replication or growth. Inhibition is in % at the dose shown (toxicity tests: loss of growth or viability). A number after MIC or MFC names an inhibition level or a share of isolates.

SMILES	endpoint	setting	dose	read by	agent	strain	value
O=C(Oc1ccc(Cl)cc1C(=O)Nc1ccc(C(F)(F)F)cc1)c1cnccn1	MIC	7 d	-	-	Mycobacterium kansasii	235/80	2 µM
CCCCCCCCCCCCCCCCCCCCCC(=O)NC(CCC(=O)O)(CCC(=O)O)CCC(=O)O	MIC	-	-	-	Mycobacterium abscessus	AAy-P-1	3.4 µg/mL
Cc1ccc(-n2c(=S)oc3ccc(C)cc3c2=S)cc1	MIC	21 d	-	-	Mycobacterium kansasii	My 235/80	4 µM
O=c1[nH]c(=O)n([C@@H]2O[C@H](CO)[C@@H](O)[C@H]2O)cc1F	inhibition	-	50 µg/mL	-	Mycobacterium avium	ATCC 25291	0%
O=C(NNC(=O)c1ccncc1)Nc1ccc(F)c(C(F)(F)F)c1	MIC100	21 d	-	broth dilution	Mycobacterium kansasii	My 235/80	125 µM
FC(F)(F)c1ccc(-n2c(=S)oc3ccc(Br)cc3c2=S)cc1	MIC	14 d	-	-	Mycobacterium kansasii	My 235/80	16 µM
CCCCCCCCCCCCN(C(=O)Nc1ccc(Cl)cc1)[C@@H](CC(=O)OCC)C1O[C@@H]2OC(C)(C)O[C@@H]2[C@H]1OC	MIC	-	-	-	Mycobacterium aurum	-	25 µg/mL
CCCCc1ccc(NC(=O)NNC(=O)c2ccncc2)cc1	MIC100	7 d	-	broth dilution	Mycobacterium kansasii	My 235/80	62.5 µM
CO[C@@]1(NC(=O)CCCC(N)C(=O)O)C(=O)N2C(C(=O)O)=C(COC(C)=O)CSC21	MIC	-	-	-	Mycobacterium fortuitum	1059	>100 µg/mL
O=c1[nH]c(=O)n([C@H]2C[C@H](O)[C@@H](CO)O2)cc1/C=C/I	EC50	-	-	-	Mycobacterium avium	ATCC 25291	>50 µg/mL
NCC[C@H](O)C(=O)N[C@@H]1C[C@H](N)[C@@H](O[C@H]2O[C@H](CN)[C@@H](O)[C@H](O)[C@H]2O)[C@H](O)[C@H]1O[C@H]1O[C@H](CO)[C@@H](O)[C@H](N)[C@H]1O	MIC	-	-	-	Mycobacterium abscessus	AAy-P-1	19 µg/mL
O=c1[nH]c(=O)n([C@H]2C[C@H](F)[C@@H](CO)O2)cc1Br	inhibition	-	50 µg/mL	-	Mycobacterium avium	ATCC 25291	0%
CO[C@@]1(NC(=O)C(C(=O)O)c2ccc(O)cc2)C(=O)N2C(C(=O)O)=C(CSc3nnnn3C)CO[C@@H]21	MIC	-	-	-	Mycobacterium fortuitum	1059	>100 µg/mL
CC[C@H]1OC(=O)[C@H](C)[C@@H](O[C@H]2C[C@@](C)(OC)[C@@H](OC(C)=O)[C@H](C)O2)[C@H](C)[C@@H](O[C@@H]2O[C@H](C)C[C@H](N(C)C)[C@H]2OC(=O)NN2CCCC2)C(C)(O)C[C@@H](C)/C(=N\OCCCC2CCCCC2)[C@H](C)[C@@H](O)[C@]1(C)O	MIC	-	-	-	Mycobacterium avium complex	20096 (clarithromycin-resistant)	3.13 µg/mL
O=c1oc2ccc(F)cc2c(=S)n1-c1ccc(Cl)cc1	MIC	14 d	-	-	Mycobacterium kansasii	6509/96	1 µM
CO[C@@]1(NC(=O)CSCC#N)C(=O)N2C(C(=O)O)=C(CSc3nnnn3C)CS[C@@H]21	MIC	-	-	-	Mycobacterium fortuitum	1059	12.5 µg/mL
CCCCCCCC/C=C\CCCCCCCCN1C(=O)N(Cc2ccccc2)C(=O)C[C@H]1C1OC2OC(C)(C)OC2[C@H]1Oc1ccccc1	MIC	-	-	-	Mycobacterium aurum	-	>25 µg/mL
CCCCCCCCCCC(CCCCCCCCCC)NC(=O)NC(CCC(=O)O)(CCC(=O)O)CCC(=O)O	MIC	-	-	-	Mycobacterium abscessus	AAy-P-1	36 µg/mL
O=C(Oc1ccc(Cl)cc1C(=O)Nc1cccc(F)c1)c1cnccn1	MIC	7 d	-	-	Mycobacterium kansasii	235/80	2 µM
S=c1oc2ccc(Br)cc2c(=S)n1-c1ccc(Br)cc1	MIC	21 d	-	-	Mycobacterium kansasii	6509/96	4 µM
CCCCCCCCc1ccc(NC(=O)NNC(=O)c2ccncc2)cc1	MIC100	21 d	-	broth dilution	Mycobacterium kansasii	My 235/80	>500 µM
CC[C@H]1OC(=O)[C@H](C)[C@@H](O)[C@H](C)[C@@H](O[C@@H]2O[C@H](C)C[C@H](N(C)C)[C@H]2O)C(C)(O)C[C@@H](C)/C(=N\OCCCOc2ccccc2)[C@H](C)[C@@H](O)[C@]1(C)O	MIC	-	-	-	Mycobacterium avium complex	20096 (clarithromycin-resistant)	>50 µg/mL
CC(C)c1ccc(NC(=O)NNC(=O)c2ccncc2)cc1	MIC100	21 d	-	broth dilution	Mycobacterium avium	MY330/88	32 µM
CCCCCCCCCN(CCCCCCCCC)C(=O)NC(CCC(=O)O)(CCC(=O)O)CCC(=O)O	MIC	-	-	-	Mycobacterium chelonae	EO-P-1	105 µg/mL
CCOC(=O)C[C@H](NC(=O)Nc1ccc(Cl)cc1)C1O[C@@H]2OC(C)(C)O[C@@H]2[C@H]1Oc1ccccc1	MIC	-	-	-	Mycobacterium aurum	-	>25 µg/mL
O=C(OCCNC(=O)c1c(Cl)nc2ccccn12)c1ccc(C(F)(F)F)cc1	MIC50	-	-	fluorescence	Mycobacterium ulcerans	-	>10 µg/mL
CCCCCCCC/C=C\CCCCCCCCN(C(=O)NCc1ccccc1)[C@@H](CC(=O)OCC)C1O[C@@H]2OC(C)(C)O[C@@H]2[C@H]1Oc1ccccc1	MIC	-	-	-	Mycobacterium aurum	-	>25 µg/mL
COCc1cn([C@H]2C[C@H](O)[C@@H](CO)O2)c(=O)[nH]c1=O	inhibition	-	50 µg/mL	-	Mycobacterium avium	ATCC 25291	0%
CO[C@@H]1C2OC(C)(C)OC2OC1[C@@H]1CC(=O)N(c2ccc(Cl)cc2)C(=O)N1C1CC1	MIC	-	-	-	Mycobacterium aurum	-	>25 µg/mL
Cc1nc2ccccn2c1C(=O)NCc1ccc2c(c1)OCO2	MIC50	-	-	fluorescence	Mycobacterium ulcerans	-	0.1–1 µg/mL
O=C(NNC(=O)c1ccncc1)Nc1cc(Cl)cc(Cl)c1	MIC100	7 d	-	broth dilution	Mycobacterium kansasii	My 235/80	125 µM
CO[C@H]1O[C@@H](n2ccc(=O)[nH]c2=O)C[C@@H]1N=[N+]=[N-]	EC50	-	-	-	Mycobacterium avium	ATCC 25291	>50 µg/mL
O=C(NCc1ccc(CN2CCOCC2)nc1)c1c(Cl)nc2ccccn12	MIC50	-	-	fluorescence	Mycobacterium ulcerans	-	1–10 µg/mL
O=c1[nH]c(=O)n([C@H]2O[C@@H](CO)[C@H](O)[C@@H]2O)cc1I	inhibition	-	50 µg/mL	-	Mycobacterium avium	ATCC 25291	0%
O=C(NNC(=O)c1ccncc1)Nc1ccc(Br)cc1Br	MIC100	14 d	-	broth dilution	Mycobacterium kansasii	My 235/80	>125 µM
CCCCCCCCCCCCCCCCCCCCNC(=O)NC(CCC(=O)O)(CCC(=O)O)CCC(=O)O	MIC	-	-	-	Mycobacterium chelonae	EO-P-1	36 µg/mL
O=C(Oc1ccc(Cl)cc1C(=O)Nc1cccc(Cl)c1)c1cnccn1	MIC	14 d	-	-	Mycobacterium kansasii	6509/96	2 µM
CO[C@H]1/C=C/O[C@@]2(C)Oc3c(C)c(O)c4c(O)c(c5c(c4c3C2=O)NC2(CCN(CC(C)C)CC2)N=5)=NC(=O)/C(C)=C\C=C\[C@H](C)[C@H](O)[C@@H](C)[C@@H](O)[C@@H](C)[C@H](OC(C)=O)[C@@H]1C	MIC	-	-	-	Mycobacterium avium intracellulare	9-Feb	1 µg/mL
O=c1oc2ccc(F)cc2c(=S)n1-c1ccc(F)cc1	MIC	21 d	-	-	Mycobacterium kansasii	My 235/80	16 µM
O=c1[nH]c(=O)n([C@H]2C[C@H](O)[C@@H](CO)O2)cc1CCO	EC50	-	-	-	Mycobacterium avium	ATCC 25291	>50 µg/mL
O=c1oc2ccc(Br)cc2c(=S)n1-c1ccc(F)cc1	MIC	21 d	-	-	Mycobacterium kansasii	My 235/80	16 µM
CC[C@H]1OC(=O)[C@H](C)[C@@H](OC2C[C@@](C)(OC)[C@@H](OC(=O)CCc3ccccc3)[C@H](C)O2)[C@H](C)[C@@H](O[C@@H]2O[C@H](C)C[C@H](N(C)C)[C@H]2O)C(C)(O)C[C@@H](C)/C(=N\OCCCOc2ccccc2)[C@H](C)[C@@H](O)[C@]1(C)O	MIC	-	-	-	Mycobacterium avium complex	20096 (clarithromycin-resistant)	1.56 µg/mL
O=C(NC1CCCCC1)N(C(=O)c1cnccn1)C1CCCCC1	MIC	21 d	-	-	Mycobacterium kansasii	6509/96	500 µM
CCCCCCCCCCCCCCCCN(C(=O)Nc1ccc(Cl)cc1)[C@@H](CC(=O)OCC)C1O[C@@H]2OC(C)(C)O[C@@H]2[C@H]1OC	MIC	-	-	-	Mycobacterium aurum	-	>25 µg/mL
Cc1nc2ccccn2c1C(=O)NCN1CCN(C(=O)c2ccccc2Cl)CC1	MIC50	-	-	fluorescence	Mycobacterium ulcerans	-	>10 µg/mL
CCCCO/N=C1\[C@H](C)CC(C)(O)[C@H](O[C@@H]2O[C@H](C)C[C@H](N(C)C)[C@H]2O)[C@@H](C)[C@H](OC2C[C@@](C)(OC)[C@@H](O)[C@H](C)O2)[C@@H](C)C(=O)O[C@H](CC)[C@@](C)(O)[C@H](O)[C@H]1C	MIC	-	-	-	Mycobacterium avium complex	20092 (clarithromycin-resistant)	>50 µg/mL
Cc1cn([C@@H]2O[C@H](CO)[C@@H](O)[C@@H]2O)c(=O)[nH]c1=O	EC50	-	-	-	Mycobacterium avium	ATCC 25291	>50 µg/mL
CC1(C)OC2OC([C@@H]3CC(=O)N(c4ccc(Cl)cc4)C(=O)N3)[C@H](Oc3ccccc3)C2O1	MIC	-	-	-	Mycobacterium aurum	-	>25 µg/mL
O=C(Oc1ccc(Br)cc1C(=O)Nc1ccc(C(F)(F)F)cc1)c1cnccn1	MIC	14 d	-	-	Mycobacterium kansasii	6509/96	1 µM
CC[C@H]1OC(=O)[C@H](C)[C@@H](OC2C[C@@](C)(OC)[C@@H](O)[C@H](C)O2)[C@H](C)[C@@H](O[C@@H]2O[C@H](C)C[C@H](N(C)C)[C@H]2O)C(C)(O)C[C@@H](C)/C(=N\OCCCCCc2ccccc2)[C@H](C)[C@@H](O)[C@]1(C)O	MIC	-	-	-	Mycobacterium avium complex	20096 (clarithromycin-resistant)	6.25 µg/mL
Fc1cccc(-n2c(=S)oc3ccc(F)cc3c2=S)c1	MIC	21 d	-	-	Mycobacterium kansasii	My 235/80	16 µM
CC[C@H]1OC(=O)[C@H](C)[C@@H](O[C@H]2C[C@@](C)(OC)[C@@H](OC(C)=O)[C@H](C)O2)[C@H](C)[C@@H](O[C@@H]2O[C@H](C)C[C@H](N(C)C)[C@H]2OC(=O)NN)C(C)(O)C[C@@H](C)/C(=N\OCCCC2CCCCC2)[C@H](C)[C@@H](O)[C@]1(C)O	MIC	-	-	-	Mycobacterium avium complex	20039 (clarithromycin-susceptible)	3.13 µg/mL
C[C@@H](O)[C@H]1C(=O)N2C(C(=O)O)=C(SCCN=CN)C[C@H]12	MIC	-	-	-	Mycobacterium fortuitum	AO5	6.25 µg/mL
O=c1oc2ccc(Br)cc2c(=S)n1-c1cccc(F)c1	MIC	14 d	-	-	Mycobacterium kansasii	My 235/80	8 µM
CC[C@H]1OC(=O)[C@H](C)[C@@H](OC2C[C@@](C)(OC)[C@@H](O)[C@H](C)O2)[C@H](C)[C@@H](O[C@@H]2O[C@H](C)C[C@H](N(C)C)[C@H]2O)C(C)(O)C[C@@H](C)/C(=N\OCCCC2CCCCC2)[C@H](C)[C@@H](O)[C@]1(C)O	MIC	-	-	-	Mycobacterium avium complex	20039 (clarithromycin-susceptible)	3.13 µg/mL
CO[C@@]1(NC(=O)C2SC(=C(C(N)=O)C(=O)[O-])S2)C(=O)N2C(C(=O)[O-])=C(CSc3nnnn3C)CS[C@@H]21	MIC	-	-	-	Mycobacterium fortuitum	1047	50 µg/mL
CCCCCCCCC(CCCCCCCC)NC(=O)NC(CCC(=O)O)(CCC(=O)O)CCC(=O)O	MIC	-	-	-	Mycobacterium chelonae	EO-P-1	144 µg/mL
Cc1nc2ccc(Br)cn2c1C(=O)NCc1ccc(N2CCOCC2)cc1	MIC50	-	-	fluorescence	Mycobacterium ulcerans	-	0.01–0.1 µg/mL

The first 4 rows once more:

O=C(Oc1ccc(Cl)cc1C(=O)Nc1ccc(C(F)(F)F)cc1)c1cnccn1 ; endpoint: MIC ; setting: 7 d ; agent: Mycobacterium kansasii ; strain: 235/80 ; value: 2 µM
CCCCCCCCCCCCCCCCCCCCCC(=O)NC(CCC(=O)O)(CCC(=O)O)CCC(=O)O ; endpoint: MIC ; agent: Mycobacterium abscessus ; strain: AAy-P-1 ; value: 3.4 µg/mL
Cc1ccc(-n2c(=S)oc3ccc(C)cc3c2=S)cc1 ; endpoint: MIC ; setting: 21 d ; agent: Mycobacterium kansasii ; strain: My 235/80 ; value: 4 µM
O=c1[nH]c(=O)n([C@@H]2O[C@H](CO)[C@@H](O)[C@H]2O)cc1F ; endpoint: inhibition ; dose: 50 µg/mL ; agent: Mycobacterium avium ; strain: ATCC 25291 ; value: 0%